The text below walks through data of patent US20140011700.

This data set addresses Influenza A nucleoprotein (NP) (Influenza A virus (A/WSN/33, H1N1)) (UniProt P15682). Put plainly: SPR. The settings on record: 2'-OMe (stated as 2-O-methylated, positions not specified); purified recombinant protein; label: 5'-biotin.

Construct, isoform or probe ends are uncertain for at least one entry.

In general, Kd refers to the constant that tells how readily two partners part at equilibrium. With “UAGAAACAAGGGUGUUUUUUCAGAUCUAUUAAACUUCACCCUGCUUUUGCU [biotinylated 2'-O-methylated RNA oligonucleotide]”, the Kd is 10.2 nM.
